# Share of PSTVd loop 6 variants by leaf site

Source: Wu et al. 2024 (doi:10.1371/journal.ppat.1012142), supplementary data.

Region: loop 6 of PSTVd (intermediate strain), upper and lower strand joined, each 5' to 3', the first 5 letters being the upper strand, closing pairs included. Wild type: UGACCGCGAG. Varied positions (N): UNNNCGNNNG.

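Three N. benthamiana plants were inoculated with the whole mutant pool. Samples came from the inoculated region at 5 days, the leaf margin at 10 and upper systemic leaves at 12.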

Numbers give reads per thousand; 0 = not seen among the reads, higher = more abundant. Each value is the mean of three plants. "Pool" is the share in the plasmid pool used as inoculum, on the same scale. The inoculated region was read from the minus strand, the other sites from the plus strand. IR is the inoculated region, LM the leaf margin, Sys the systemic leaves. Sequences that differ at fixed positions probably stem from PCR or sequencing errors, and defective variants can be carried along by functional ones. With 36,220-57,551 reads a sample, very low values are single reads. For reference, wild type rose from 20.7 per thousand in the pool to 195, 198, 203 (inoculated region), 629, 591, 734 (leaf margin) and 942, 870, 868 (systemic leaves).

- UGACCGUUAU (pool 0.0131) -> IR 0; LM 0; Sys 0.0473
- UGUCCGCAUG (pool 0.131) -> IR 0.726; LM 0.0184; Sys 0.0400
- UAAGCGGCAG (pool 0.196) -> IR 0.609; LM 0.0628; Sys 0.0203
- UAUACGCACG (pool 0.248) -> IR 0.100; LM 0.00773; Sys 0
- UGAUCUCGAG (pool 0.0131) -> IR 0.00599; LM 0; Sys 0
- UGGCCUGUCC (pool 0.0131) -> IR 0.00615; LM 0; Sys 0
- UGGUCGCAUG (pool 0.183) -> IR 0.0826; LM 0.0169; Sys 0
- UCCGCGCAUG (pool 0.157) -> IR 0.0779; LM 0; Sys 0
- UUGGCGUCGG (pool 0.353) -> IR 0.0708; LM 0.00773; Sys 0
- UGACCGACAG (pool 0.327) -> IR 0.328; LM 0.250; Sys 0.0793
- UCUCCGUAUG (pool 0.275) -> IR 0.0719; LM 0.0644; Sys 0
- UCAUCGUUUG (pool 0.209) -> IR 0.0842; LM 0; Sys 0
- UUGUCGCCCG (pool 0.366) -> IR 0.0771; LM 0.00920; Sys 0
- UCAACGGUUG (pool 0.170) -> IR 0.0882; LM 0.00773; Sys 0
- UUUCCGGCAG (pool 0.261) -> IR 0.125; LM 0.00773; Sys 0
- UUGCCGUUCG (pool 0.458) -> IR 0.0661; LM 0.0169; Sys 0
- UGAUCGCGAG (pool 0.340) -> IR 0.352; LM 0.553; Sys 0.289
- UACUCGCCCG (pool 0.235) -> IR 0.0838; LM 0; Sys 0
- UAGUCGGGAG (pool 0.261) -> IR 0.650; LM 0.0906; Sys 0
- UUCACGCUCG (pool 0.183) -> IR 0.0888; LM 0.00920; Sys 0
- UGACCGAGAG (pool 0.275) -> IR 0.608; LM 9.54; Sys 1.83
- UCUUCGCAUG (pool 0.183) -> IR 0.156; LM 0; Sys 0
- UCAUCGCUCG (pool 0.288) -> IR 0.0717; LM 0.00920; Sys 0
- UGUACGCGCG (pool 0.196) -> IR 0.127; LM 0.00773; Sys 0
- UCUUCGUGAG (pool 0.314) -> IR 0.121; LM 0.0169; Sys 0
- UGUCCGUAGG (pool 0.327) -> IR 0.132; LM 0; Sys 0
- UACCCGCCUG (pool 0.209) -> IR 0.0967; LM 0; Sys 0

The opening 3 entries, copied out:

sequence	pool	IR	LM	Sys
UGACCGUUAU	0.0131	0	0	0.0473
UGUCCGCAUG	0.131	0.726	0.0184	0.0400
UAAGCGGCAG	0.196	0.609	0.0628	0.0203